Assay results published in patent US20110059555, “BRANCHED AND MULTI-CHAIN NUCLEIC ACID SWITCHES FOR SENSING AND SCREENING” (Syracuse University, published 2011).
Like-named read-outs stand apart in the source and are kept apart here.

Target: NCp7 (nucleocapsid protein, Zn2.NCp7(1-55)) (HIV-1) (UniProt P35962)
Conditions: Trp37 fluorescence quenching, 0.2 M NaCl

Substance: SL1i
- Kd: 0.14 µM

Substance: SL2
- Kd (p120 gives 25 nM): 0.023 µM

Substance: SL3 (20mer)
- Kd (1:1): 0.028 µM

Substance: SL3-GAUA
- Kd (quenching almost nil): 16 µM

Substance: SL3-UUCG
- Kd (quenching almost nil): 7.5 µM

Substance: SL3-all-DNA
- Kd: 0.23 µM

Substance: SL4
- Kd: 0.32 µM
